Anti-infective test results gathered from many reports (values: NIAID ChemDB through PubChem).

Common to all: tests in culture; species: Mycobacterium tuberculosis

A number after MIC or MFC names an inhibition level or a share of isolates. ECn is the concentration giving n% inhibition of infection, replication or growth. An empty or dashed field is not shown. Conditions beyond the fields shown may differ between rows. For "inactive" no cut-off is given. MIC bound comes from a single tested concentration. Percent inhibition refers to the dose given; in toxicity tests it is the harm to the cells.

SMILES,endpoint,strain,method,dose,changes,result
CO[C@H]1/C=C/O[C@@]2(C)Oc3c(C)c(O)c4c(O)c(c(/C=N/N5CCN(C)CC5)c(O)c4c3C2=O)NC(=O)/C(C)=C\C=C\[C@H](C)[C@H](O)[C@@H](C)[C@@H](O)[C@@H](C)[C@H](OC(C)=O)[C@@H]1C,MIC,H37Rv,resazurin,,,0.003 µg/mL
CCOC(=O)c1ccc(OC)c2[nH]c3c(c(=O)c12)C(=O)c1[nH]c2c(OC)ccc(C(=O)OCC)c2c(=O)c1C3=O,MIC bound,H37Rv,BACTEC,,,>12.5 µg/mL
Oc1cc(C(O)CCc2ccc(Cl)cc2)ccc1Oc1ccccc1,MIC,H37Rv,resazurin,,,4 µg/mL
CO[C@@]1(NC(=O)Cc2cccs2)C(=O)N2C(C(=O)O)=C(COC(N)=O)CS[C@@H]21,MIC,H37Rv,,,,>16 µg/mL
CC1(C)COC(c2cc(Br)ccc2Br)=N1,MIC bound,H37Rv,BACTEC,,,>12.5 µg/mL
CCCCCCCCCCCCNC(CC(=O)OCC)c1ccc([N+](=O)[O-])cc1,MIC,H37Ra,,,,>25 µg/mL
CCc1cc(Cc2cc(CC)c(NC(=O)C3=CC(=O)CC(c4ccc(OC)cc4)O3)c(CC)c2Cl)c(Cl)c(CC)c1NC(=O)C1=CC(=O)CC(c2ccc(OC)cc2)O1,inhibition,H37Rv,BACTEC,12.5 µg/mL,,26%
CC1(C)[C@H](C(=O)O)N2C(=O)C[C@H]2S1(=O)=O,MIC,Isolate 3,,,,>16 µg/mL
NNC(=O)c1ccncc1,MIC99,H37Rv,resazurin,,,0.098 µg/mL
O=C(/C=C/c1ccccc1)Oc1ccc(/C=C2\CCC/C(=C\c3ccc(OC(=O)/C=C/c4ccccc4)cc3)C2=O)cc1,EC50,H37Rv,,,,>12.5 µg/mL
Cc1ccc(-n2cc(CNC3c4ccccc4-c4ccccc43)nn2)cc1C,MIC99,H37Rv,broth dilution,,,>273 µM
CSC(=S)N1CCN(C(=S)SC)C1=O,MIC,H37Rv,BACTEC,,,≥128 µg/mL
Oc1cc(Cl)ccc1Oc1ccc(Cl)cc1Cl,MIC,Clinical isolate,resazurin,,MDR,>12.5 µg/mL
Cc1ccc(C)c(NC(=O)C(=O)C2C(=O)C3=C(CC2(C)C)Nc2ccccc2S3)c1,inhibition,H37Rv,BACTEC,12.5 µg/mL,,11%
COc1ccccc1Sc1ccncc1,MIC90,H37Rv,,,,>6.25 µg/mL
CC(=O)/C(N=Nc1ccc(C(=O)N/N=C/c2ccc(N(C)C)cc2)cc1)=C(\C)O,MIC,H37Rv,,,,>12.5 µg/mL
O=C(/C=C/c1ccccc1)Oc1ccc(/C=C2\CCCCC2=O)cc1,inhibition,H37Rv,,12.5 µg/mL,,45%
CCOc1ccc2c(c1)n([O-])c1cc(Br)ccc1[n+]2=O,MIC bound,H37Rv,BACTEC,,,≤12.5 µg/mL
COc1ccc(CCC(O)c2ccc(Oc3ccccc3)c(O)c2)cc1,MIC,Clinical isolate,resazurin,,INH resistant,6.25 µg/mL
O=C1Nc2ccccc2[C@]12N1CSC[C@H]1[C@H](c1cccc(Cl)c1Cl)[C@]21Cc2ccccc2C1=O,MIC,H37Rv,agar,,,12.3 µM
CCN(CC)CCCC(C)Nc1cc(/C=C/c2ccc(Cl)cc2)nc2ccc(N(C)C)cc12,MIC bound,H37Rv,BACTEC,,,≤12.5 µg/mL
C/C=C/c1ccc2oc(-c3ccc(OC)c(OC)c3)c(C)c2c1,MIC,Clinical isolate 57,resazurin / absorbance,,,7.8 µg/mL
COc1c(N2CCNC(C)C2)c(F)cc2c(=O)c(C(=O)O)cn(C3CC3)c12,MIC,T865 streptomycin-resistant,,,,0.25 µg/mL
CC(=O)/C(N=Nc1ccc(C(=O)N/N=C/c2ccccc2F)cc1)=C(\C)O,MIC,H37Rv,,,,>12.5 µg/mL
NC(=O)c1cn([C@@H]2O[C@H](CO)[C@@H](O)[C@H]2O)c2nc(N)nc(N)c2c1=O,MIC bound,H37Rv,resazurin,,,>6.25 µg/mL
Cc1nc2ccccc2c2nc3ccccc3n12,MIC99,H37Rv,resazurin,,,1.56 µg/mL
CCOC(=O)Cc1csc(NNC(=O)c2ccccc2)n1,MIC bound,H37Rv,BACTEC,,,>12.5 µg/mL
Cc1c(Cc2ccc(F)cc2)c(=O)n2c([nH]c3ccccc32)c1C#N,MIC,H37Rv,broth dilution,,,2 µg/mL
C[CH2][Sn]([Cl])([Cl])[CH2]C.c1ccc(-c2ccnc3c2ccc2c(-c4ccccc4)ccnc23)cc1,inhibition,H37Rv,BACTEC,12.5 µg/mL,,99%
CCCCCCCCCCCCNC(CC(=O)OCC)c1cccc(Cl)c1,MIC,H37Ra,,,,>25 µg/mL
C=CN(O)C[C@@H](CCCC)C(=O)N[C@H](C(=O)N(C)C)C(C)(C)C,MIC90,H37Rv,,,,0.2 µg/mL
O=C1Nc2ccc([N+](=O)[O-])cc2[C@]12N1CSC[C@H]1[C@H](c1ccccc1Cl)[C@]21Cc2ccccc2C1=O,MIC99,H37Rv,agar,,,12.1 µM
Cc1ccccc1CSc1nc(=O)[nH]c2nc[nH]c12,MIC90,H37Rv,,,,>6.25 µg/mL
CC(=O)/C(N=Nc1ccc(C(=O)N/N=C/c2ccc([N+](=O)[O-])cc2)cc1)=C(\C)O,inhibition,H37Rv,,12.5 µg/mL,,13%
Oc1cc(C(O)CCc2ccco2)ccc1Oc1ccccc1,MIC,Clinical isolate,resazurin,,MDR,4 µg/mL
CCOC(=O)CC(c1cccc(Cl)c1)N1CCCC1,MIC,Sensitive strains,,,,12.5 µg/mL
CCCCCCCC/C=C\CCCCCCCC(=O)NNC(=O)c1ccncc1,MIC100,ATCC 35822 INHr,resazurin,,,1.56 µg/mL
CCCCCCCCCCCCNCc1ccccc1O,MIC,Sensitive strains,,,,6.25 µg/mL
Nc1ccc(N=Nc2cccc3c(N=Nc4ccc(N)nc4N)cccc23)c(N)n1,inhibition,H37Rv,resazurin,6.25 µg/mL,,13%
O=C(c1ccncc1)N1N=C(c2cccs2)CC1(O)C(Cl)(Cl)Cl,MIC,RGH104,,,,>257 µM
Cc1c(CN2CCSCC2)cc(-c2cccc3ccccc23)n1-c1ccc(F)cc1,MIC,103471,,,,>16 µg/mL
COc1ccc(C(=O)Oc2ccc(/C=C3\CCCCC3=O)cc2)cc1,EC50,H37Rv,,,,<12.5 µg/mL
CCCCCCC/C=C\CCCCCCCC(=O)NN,MIC100,ATCC 27294 H37Rv,resazurin,,,50 µg/mL
CC(=O)OC[C@@H](OC(C)=O)[C@H](/C=C/CC(C)[N+](=O)[O-])OC(C)=O,inhibition,H37Rv,agar,12.5 µg/mL,,100%
O=S(=O)(Cc1cn(-c2ccccc2)nn1)C1c2ccccc2-c2ccccc21,MIC99,H37Rv,broth dilution,,,>258 µM
c1ccc(CSc2ncccn2)cc1,inhibition,H37Rv,,6.25 µg/mL,,0%
CCOc1ccc2ccccc2c1C(=O)N[C@@H]1C(=O)N2[C@@H]1SC(C)(C)[C@@H]2C(=O)O,MIC,Isolate 4,,,,>16 µg/mL
CC(=O)NC(C)C(CC[C@@H](OC(C)=O)[C@@H](COC(C)=O)OC(C)=O)OC(C)=O,inhibition,H37Rv,agar,25 µg/mL,,inactive
CCCCCCCCNCc1ccc(Cl)cc1,MIC,Sensitive strains,,,,12.5 µg/mL
CC(=O)/C(N=Nc1ccc(C(=O)N/N=C/c2ccc(O)cc2)cc1)=C(\C)O,MIC,H37Rv,,,,>12.5 µg/mL
Cc1ccc(/C=C/C(=O)Oc2ccc(/C=C3\CCCCC3=O)cc2)cc1,inhibition,H37Rv,,12.5 µg/mL,,3%
CSC(=S)[N-]C#N.[K+],MIC,H37Rv,BACTEC,,,≥128 µg/mL
COc1ccc([C@H]2[C@@H]3CSCN3[C@@]3(C(=O)Nc4ccccc43)[C@@]23Cc2ccccc2C3=O)cc1,MIC99,H37Rv,agar,,,53.4 µM
Cc1c(/C=N/NC(=O)CCCC(=O)N/N=C/c2c(C)n(C)n(-c3ccccc3)c2=O)c(=O)n(-c2ccccc2)n1C,MIC,H37Rv,BACTEC,,,≥12.5 µg/mL
CCCc1ccc2oc(-c3ccc(O)c(OC)c3)c(C)c2c1,MIC,H37Rv,resazurin / absorbance,,,7.8 µg/mL
NNC(=O)c1ccncc1,MIC,H37Rv,resazurin,,,0.125 µg/mL
COc1ccccc1Sc1ncccn1,inhibition,H37Rv,,6.25 µg/mL,,2%
Cc1ccc([C@H]2[C@@H]3CSCN3[C@@]3(C(=O)Nc4ccc([N+](=O)[O-])cc43)[C@@]23Cc2ccccc2C3=O)cc1,MIC99,H37Rv,agar,,,25.1 µM
Cc1c(Cc2ccccc2Cl)c(=O)n2c([nH]c3ccccc32)c1C#N,MIC90,H37Rv,resazurin,,,>128 µg/mL
Clc1cc(Cl)cc(-n2cc(CNC3c4ccccc4-c4ccccc43)nn2)c1,MIC99,H37Rv,broth dilution,,,>246 µM
O=C(c1ccncc1)N1N=C(c2cccs2)CC1(O)C(F)(F)F,MIC,RGH104,,,,>293 µM
CC(C)C1SCC(=O)N1c1nncs1,inhibition,H37Rv,BACTEC,12.5 µg/mL,,6%
c1ccc2c(c1)ncn1c3ccccc3nc21,MIC99,H37Rv,resazurin,,,1.56 µg/mL
C[C@@H](O)[C@H]1C(=O)N2C(C(=O)O)=C(SCCN=CN)C[C@H]12,MIC,Isolate 5,,,,2 µg/mL
CCCCCCCCCCCCNCc1ccccn1,MIC,H37Ra,,,,<25 µg/mL
CCn1c(=O)nc2n(-c3ccccc3)c3ccccc3nc-2c1=O,MIC bound,H37Rv,BACTEC,,,>12.5 µg/mL
CCCCCCCCNC(CCO)c1cccc(Cl)c1,MIC,H37Ra,,,,<25 µg/mL
O=S(=O)(Cc1cn(-c2ccc(Br)cc2)nn1)C1c2ccccc2-c2ccccc21,MIC99,Specimen 192,broth dilution,,,>214 µM
CCCCNC(CC(=O)OCC)c1cccc([N+](=O)[O-])c1,MIC,H37Ra,,,,>25 µg/mL
N/C(=N\OC(=O)Nc1ccc(CSc2ccc(Cl)cc2)o1)c1ccccn1,inhibition,H37Rv,BACTEC,12.5 µg/mL,,3%
CC(=O)OC[C@@H](OC(C)=O)[C@H](/C=C/CC[N+](=O)[O-])OC(C)=O,inhibition,H37Rv,agar,25 µg/mL,,100%
NNC(=O)c1ccncc1,MIC100,ATCC 35338 RMPr,resazurin,,,0.015 µg/mL
N=C1C(=O)NC(=O)C1c1ccccc1,MIC bound,H37Rv,BACTEC,,,>12.5 µg/mL
Cc1cccc(CSc2nc(=O)[nH]c3nc[nH]c23)c1,MIC,H37Ra,,,,>12.8 µg/mL
CO[C@H]1/C=C/O[C@@]2(C)Oc3c(C)c(O)c4c(O)c(c(/C=N/N5CCN(C)CC5)c(O)c4c3C2=O)NC(=O)/C(C)=C\C=C\[C@H](C)[C@H](O)[C@@H](C)[C@@H](O)[C@@H](C)[C@H](OC(C)=O)[C@@H]1C,MIC,SIT1688,resazurin,,,2 µg/mL
COc1ccc(Cc2c(C)c(C#N)c3[nH]c4ccccc4n3c2=O)cc1,MIC90,R506,resazurin,,,0.5 µg/mL
CCOC(=O)Cn1nc(-c2ccc([N+](=O)[O-])o2)sc1=O,inhibition,H37Rv,BACTEC,12.5 µg/mL,,68%
CCCCc1nc2ccccc2c2nc3ccccc3n12,MIC99,H37Rv,resazurin,,,>25 µg/mL
O=C(NCc1ccc2ccc3cccnc3c2n1)c1ccc[n+](Cc2ccccc2)c1,MIC,H37Rv,BACTEC,,,≥12.5 µg/mL
CC[C@@H](CO)NCCN[C@@H](CC)CO,MIC99,H37Rv,resazurin,,INH resistant,7.64 µg/mL
Cc1ccc(/C=C/C(=O)Oc2ccc(/C=C3\CCC/C(=C\c4ccc(OC(=O)/C=C/c5ccc(C)cc5)cc4)C3=O)cc2)cc1,inhibition,H37Rv,,12.5 µg/mL,,0%
CC(=O)NC(C)CCC[C@H](OC(C)=O)[C@@H](COC(C)=O)OC(C)=O,inhibition,H37Rv,agar,6.25 µg/mL,,inactive
CC(=O)NNC(=O)c1ccccn1,MIC bound,H37Rv,BACTEC,,,>12.5 µg/mL
NNC(=O)c1ccncc1,MIC,Clinical isolate 17,resazurin / absorbance,,Isoniazid-resistant,2 µg/mL
Cc1ccc(C2=NN(C(=O)c3ccncc3)C(O)(C(F)(F)F)C2)cc1,MIC,H37Rv,,,,2.23 µM
CC(=O)NCCCC[C@H](OC(C)=O)[C@@H](COC(C)=O)OC(C)=O,inhibition,H37Rv,agar,6.25 µg/mL,,100%
CC1=NN(C(=O)c2ccncc2)C(O)(C(F)(F)F)C1,MIC,RGH102,,,,366.3 µM
Oc1cc(C(O)CCc2ccc(F)cc2)ccc1Oc1ccccc1,MIC,Clinical isolate,resazurin,,MDR,>12.5 µg/mL

10 of the rows above, restated:

SMILES	endpoint	strain	method	dose	changes	result
CC(=O)OC[C@@H](OC(C)=O)[C@H](/C=C/CC[N+](=O)[O-])OC(C)=O	inhibition	H37Rv	agar	25 µg/mL		100%
O=S(=O)(Cc1cn(-c2ccc(Br)cc2)nn1)C1c2ccccc2-c2ccccc21	MIC99	Specimen 192	broth dilution			>214 µM
N=C1C(=O)NC(=O)C1c1ccccc1	MIC bound	H37Rv	BACTEC			>12.5 µg/mL
Cc1ccc(/C=C/C(=O)Oc2ccc(/C=C3\CCC/C(=C\c4ccc(OC(=O)/C=C/c5ccc(C)cc5)cc4)C3=O)cc2)cc1	inhibition	H37Rv		12.5 µg/mL		0%
Cc1ccc([C@H]2[C@@H]3CSCN3[C@@]3(C(=O)Nc4ccc([N+](=O)[O-])cc43)[C@@]23Cc2ccccc2C3=O)cc1	MIC99	H37Rv	agar			25.1 µM
C[CH2][Sn]([Cl])([Cl])[CH2]C.c1ccc(-c2ccnc3c2ccc2c(-c4ccccc4)ccnc23)cc1	inhibition	H37Rv	BACTEC	12.5 µg/mL		99%
O=C(c1ccncc1)N1N=C(c2cccs2)CC1(O)C(Cl)(Cl)Cl	MIC	RGH104				>257 µM
COc1ccc(Cc2c(C)c(C#N)c3[nH]c4ccccc4n3c2=O)cc1	MIC90	R506	resazurin			0.5 µg/mL
CCCCCCCCNCc1ccc(Cl)cc1	MIC	Sensitive strains				12.5 µg/mL
CCOC(=O)Cc1csc(NNC(=O)c2ccccc2)n1	MIC bound	H37Rv	BACTEC			>12.5 µg/mL